According to patent US20220195015A1, “Neutralizing anti- sars-cov-2 antibodies” (published 2022):

target: SARS-CoV-2 spike protein on HIV-1 pseudotyped particles (SARS-CoV-2, UniProt P0DTC2 14-1254); assay: cell-based or functional assay

Row | Binder | Neutralization IC50 | Neutralization IC90
1 | C035 (antibody, V domains shown) VH: EVQLVESGGGLVQPGGSLRLSCAASGFIFSSYWMTWVRQAPGKGLEWVASIKYNGNERNYVDSVKGRFTISRDNARNSLFLQLNNLGAEDTAVYYCARQPESTIWYYFDYWGQGTLVTVSS VL: SYELTQPPSVSVSPGQTARVTCSGHALPDQYTYWYQQRPGRAPVLVIYVNNQRPSGIPDRFSATTSGTTVTLTISGVQAEDEADYYCQSADSSGSYVVFGGGTKLTVL | > 10 µg/mL | > 10 µg/mL
2 | C520 (antibody, V domains shown) VH: QVQLQQWGAGLLKPSETLSLTCAVFGGSFSGYYWGWIRQPPGKGLEWIAEINHSENSHYNPSLKSRVTISVDTFKNQFSLNLSSVTAADTALYYCVRRPRRYCSGDTCRGAFDIWGQGTMVTVSS VL: DIQMTQSPSSLSASVGDRVTITCRASQDISNFLAWYQQKPGKVPSLLIYAASILQPGVPSRFSGSGSGTDFTLTITSLQPEDVATYYCQKYKIDPFTFGPGTKVDIK | > 10 µg/mL | > 10 µg/mL
3 | C522 (antibody, V domains shown) VH: EVQLVESGGGLIQPGGSLRLSCAASEFIVSRNYMSWVRQAPGKGLEWVSVIYSGGSTFYADSVKGRFTISRDESKNTLYLQMNSLRAEDTAIYYCARDRGGGILDYWGQGTLVTVS VL: DIQMTQSPSSLSASVGDRVTITCQASQDINIFLNWYQQKPGKAPKLLIYDASSLETGVPSRFSGSGSGTDFTFTISSLQPEDFATYYCQQYGNLPKYTFGQGTKLEIK | 0.0206 µg/mL | 0.074 µg/mL
4 | C096 (antibody, V domains shown) VH: EVQLVESGGGLVKPGGSLRLSCVASGFTFRNAWMNWVRQAPGKGLEWVGRIKANSDGGTIDYAEPVQGRFTISREDSRNSLYLQMNSLKTEDTAVYYCTTGPQYDDFGHSYIVDSWGPGTLVTVSS VL: DIVMTQSPLSLPVTLGEPASISCRSSQSLLHSNGFHFLEWYLQKPGQSPQLLIYVGSNRASGVPDRFSGSGSGTDFTLKISRVEAEDVGVYYCMQTLQTPLTFGGGTKVEIK | 0.0802 µg/mL | 0.349 µg/mL
5 | C047 (antibody, V domains shown) VH: QVQLQESGPGLVKPSETLSLTCTVSGGSISSTTYYWDWIRQSPGKGLEWIGSIFYTGITYYSPSLKSRVTISVDTSKNQFSLRLNSMTAADTAVYYCARRLRQLWFGPWFDPWGQGTLVTVSS VL: QSALTQPPSASGSPGQSVTISCTGTRSDVGDYNYVSWYQQHPDKAPKLIIYEVTKRPSGVPDRFSGSKSGNTASLTVSGLQAEDEADYYCSSYAGSNNVMFGGGTKLTVL | > 10 µg/mL | > 10 µg/mL
6 | C710 (antibody, V domains shown) VH: QVQLQESGPGLVKPSETLSLTCIVSGGSINSTTYYWDWIRQSPGKGLEWIGSIFYTGITYYSPSLKTRVTISVDTSKNQFSLRLNSMTAADTAVYYCARRLRQLWFGPWFDPWGQGTLVTVSS VL: QSALTQPPSASGSPGQSVTISCTGTRSDVGDYNYVSWYQQHPDKAPKLIIFEVTKRPSGVPDRFSGSKSGNTASLTVSGLQAEDEADYYCSSYAGSSNVMFGGGTKLTVL | > 10 µg/mL | > 10 µg/mL
7 | C703 (antibody, V domains shown) VH: EVQLLESGGGLVQPGGSLRLSCAGSGFTFSHYALSWVRQAPGKGLEWVSCISGTGGNSHYADSVKGRFTSSRDNSKNILYLQMNSLRAEDTAVYFCAKGGDFWSGYLIPFDSWGQGTLVTVSS VL: SYELTQSPSVSVAPGKTARITCGGDSIGSKNVHWYQQKPGQAPVLVMYYDNDRPSGIPERFSGYNSGNTATLSISRVEAGDEADYYCLVWDGSGDPWVFGGGTKLTVL | 0.681 µg/mL | > 10 µg/mL
8 | C704 (antibody, V domains shown) VH: VQLVESGGGVVQPGRSLRLSCAASGFTFSRYGMHWVRQAPGKGLEWVAVSSYDGSNEYYANSVKGRFTISRDNSKNTLYLQMNSLRAEDTAVYYCAKTGASYCGGDCPFHFDYWGQGTLVTVSS VL: IRMTQSPSSLSASVGDRVTITCQASQDINNYLNWYQQKPGKAPKLLIYDASDLETGVPSRFSGGGSGTDFTFTISSLQPEDIATYYCQHYNNLPITFGQGTRLEIK | > 10 µg/mL | > 10 µg/mL
9 | C706 (antibody, V domains shown) VH: EVQLVESGGGLVKPGGSLRLSCAASGFTFSNVWMSWVRQAPGKGLEWVGRIKSKIDGGTTEYAAPVKGRFIISRDDSKNTLSLQMNSLKTEDTAVYYCTTDHGREPPVHWGQGTLVTVSS VL: EIVLTQSPGTLSLSPGERASLSCRARQSVYSNYLAWYQHKSGQAPRLLFYGASSRATDIPDRFSASGSGTDFTLTISRLEPEDFAVYYCLQYGPSPTFGPGTRLEIK | 2.03 µg/mL | > 10 µg/mL
10 | C707 (antibody, V domains shown) VH: EVQLVESGGGLVKPGGSLRLSCAASGFTFSSYSMNWVRQAPGKGLAWVSSISSSNNIIYYADSVKGRFTISRDDAKDSLYLHMKSLRADDTAVYFCARVPSWAPYQLLPGPFDYWGQGILVTVSS VL: IRMTQSPSSLSASVGDRVTITCQASQAIASYLSWYQHKPGRAPKLLIYDASNLEIGVPSRFSGSGSGTDFTFTISSLQSEDNATYYCQQYESLPGTFGGGTKVEIK | > 10 µg/mL | > 10 µg/mL
11 | C708 (antibody, V domains shown) VH: EVQLVESGGGLVQPGGSLRLSCAASGFSFSTYWMSWVRQAPGKGLEWVADIKQDGSEKYFVDSVKGRFTISRDNAKNSLYLHLNSLRAEDTAVYYCAREMAGSGNYYWFGYGMDVWGQGTTVTVSS VL: IRMTQSPSSVSASVGDRVTITCRASQGISSWLAWYQQKPGKAPKLLIYAASSLQSGVPSRFSGSESGTDFTLTISSLQPEDFATYYCQQANSFPLTFGGGTKVEIK | 0.489 µg/mL | 8.86 µg/mL
12 | C709 (antibody, V domains shown) VH: QVQLVQSGAEVRKPGASVKVSCMASGYTFNTYDINWVRQGTGQGLEWMGWMNPNSGNTGHAQKFQGRVAMTVNTSMNTAYMELSSLRSEDTAVYYCARGADMLNVAVGADFDYWGQGTLVTVSS VL: QSALTQPPSASGSPGQSVTISCTGTSSDVGGYNFVSWFQQHPGKAPKLMIYEVSKRPSGVPDRFSGSKSANTASLTVSGLQAEDEADYFCSSYAGSNNWVFGGGTKLTVL | 0.407 µg/mL | > 10 µg/mL
